Patent US20100210473A1

Target: phage-fragment TJ7.15 (WNWFDIT) (HIV-1 (HxB2 or SF162 gp160 fragment library))
Assay: flow cytometry, yeast-displayed scFv with different TJ7.15 phage preparations

Q: Which % double positive cells does the source give for Z13e1 scFv displayed on yeast here?
A: The % double positive cells was 40%.
